Test results: US20070059272A1 (priority 2005, published 2007)

Tested on: PCN production in PAO1 mutant strains
Assay: Pyocyanin assay in PAO1 mutant, complemented and MvfR-truncated strains
Assay type: cell-based, Pseudomonas aeruginosa
[1] = overnight, 1 mM U-50,488 or 100 μM C4-HSL

trans-3,4-dichloro-N-methyl-N[2-(1-pyrolidinyl)cyclohexyl]benzeneacetamide methanesulfonate
PCN production in mutants defective in lasR, lasI, rhlI, rhlR: did not restore PCN production
PCN production in ΔGacA and ΔMvfR: could not restore PCN production
PCN production in ΔPhzA1: produced no PCN
dynamics of PCN production in ΔGacA/gacA (200 μM compound): delayed PCN production
dynamics of PCN production in ΔMvfR/mvfR (200 μM compound): shift in PCN production at lower cell densities
PCN response of MvfR truncation mutant 121-332 (defective in the DNA-binding domain): did not respond
PCN production in ΔPhnA and ΔPqsA (much less than wild-type PAO1): slight increase in PCN production
PCN production in ΔGacA/gacA [1]: decreased, albeit minimally
PCN production in ΔMvfR/mvfR [1]: further increased
PCN response of MvfR truncation mutants 1-292, 1-291 and 1-283 (substrate binding domain affected): did not respond
PCN response of MvfR truncation mutants 1-299 and 1-293 (substrate binding domain not affected): enhanced PCN production
